{
  "source": "patent US20260069689A1",
  "about": "“ANTI-SARS-COV-2-SPIKE GLYCOPROTEIN ANTIBODIES AND ANTIGEN-BINDING FRAGMENTS” (Regeneron, published 2026)",
  "binders": {"B1": {"name": "mAb14312 (antibody, V domains shown)", "VH": "EVQLVESGGGLVQPGGSLRLSCAASGFTVSRSYMTWVRQAPGKGLEWVSVIFTGGRTDHADSVKGRFTISRHNSKNTLYLQMNSLRTEDTAVYYCARVAIVGATGAFDIWGQGTMVTVSS", "VL": "QSVLTQPPSVSGAPGQRVTISCTGSSSNIGAGDDVHWYQQLPGTAPKLLIYGNSNRPSGVPDRFSGSKSGTSASLAITGLQAEDEADYYCQSYDSSLSGSVVFGGGTKLTVLG"}, "B2": {"name": "mAb14257 (antibody, V domains shown)", "VH": "B1 VH with T35N, I51V, R56T, D58K, A60T, H72D, K75M, T87P, G102E, A103T", "VL": "B1 VL with S25T, G32D, D33F, L41F, N53H, S54T, V60I"}, "B3": {"name": "mAb14284 (antibody, V domains shown)", "VH": "QITLKESGPTLVKPTQTLTLTCTFSGFSFSTSGVGVGWIRQPPGKTLEWLALIYWDDDKRYSPSLKSRLTITKDTSKNQVVLTMTNMDPVDTATYFCAHHGIPTIFGYWGQGALVTVSS", "VL": "QSALTQPASVSGSPGQSITISCTGTSSDLGVFNYVSWYQQHPGKAPKLMIYEVTNRPSGVSNRFSGSKSGNTASLTISGLQAEDEADYYCSSYTTSSTVFGGGTKLTVLG"}, "B4": {"name": "mAb14235 (antibody, V domains shown)", "VH": "QITLKESGPTLVKPTQTLTLTCTFSGFSLNTGGVGVGWIRQPPGNALEWLALIYWDDDKRYNPSLKTRLTISKDTSKNQVVLTMTNMDPVDTATYFCAHLTIAVIVDFWGQGTLVTVSS", "VL": "B3 VL with G24A, L29V, V31T, F32Y, Y38F, Q40H, S96T, T98I"}, "B5": {"name": "mAb14258 (antibody, V domains shown)", "VH": "QLQLQESGPGLVKPSETLSLICTGSGDSISSSHYYWGWIRQPPGKGLEWIGSTYFSGSTYYNPSLKSRVSISVDTSKNQVSLKLISVTAADTAVYYCAREMGATLGDYWGPGTLVTVSS", "VL": "QSVLTQPPSASGTPGQRVTISCSGSSSNIGNNYVYWYQQFPGTTPRLLIYRNNERPSGVPDRFSGSKSGTSASLVISGLRSEDEADYYCAAWDDSLSAHYVFGTGTKVTVLG"}, "B6": {"name": "mAb14315 (antibody, V domains shown)", "VH": "QVQLVQSGAEVKKPGSSVKVSCKASGDTFSTYAINWVRQAPGQGLEWMGRFIHIFGTANYAQKFQGRVTITADESTSTAYMELRSLRSEDTAVYYCARDGVDYGDYRPDYWGQGTLVTVSS", "VL": "EIVLTQSPGTLSLSPGERATLSCRASQSVSSNYLAWYQQKPGQAPRLLIYGASSRATGIPERFSGSGSGTDFTLTISRLEPEDFAVYYCQQYGSSLYTFGQGTKLEIKR"}, "B7": {"name": "mAb14294 (antibody, V domains shown)", "VH": "EVQLVESGGGLVQPGGSLRLSCAASGFTFSNHWMDWVRQAPGKGLVWVSRINSDGSSTDYADSVRGRFTMSRDNAKNTLYLQMSSLRAEDTAVYYCAREGMIFGAVIIPGWYFDLWGRGALVTVSS", "VL": "EIVLTQSPGTLSLSPGERATLSCRASQSVSSSQLAWYQQKPGQAPRLLIYGASSRATGIPDRFSGSGSGTDFTLTISRLEPEDFAVYYCQQYDSFGQGTKLEIKR"}, "B8": {"name": "mAb14260 (antibody, V domains shown)", "VH": "EVQLVESGGGLVQPGGSLRLSCAASGFTFSIYEMNWVRQAPGKGLEWVSYITSSGFTIYYADSVKGRFTISRDNAKNSLYLQMHSLRAEDTAVYYCATSSSSGYYFDYWGQGTLVTVSS", "VL": "not shown"}, "B9": {"name": "mAb14313 (antibody, V domains shown)", "VH": "EVQLVESGGGLVQPGRSLRLSCVASGFTFDDSAMHWVRQPPGKGLEWVSGISWNSGIIGYAESVKGRFIISRDNAKNSLFLHMRGLRPEDTAVYYCARDRLELSYYYYGMDVWGQGTTVTVSS", "VL": "QSVLTQPPSASGTPGQRVTISCSGSSSNIGSNTVNWYQQFPGTAPRLLIYSNDQRPSGIPDRFSGSKSGTSASLAISGLQSEDEADYYCSTWDDSLNGAVFGGGTQLTVLG"}, "B10": {"name": "mAb13458 (antibody, V domains shown)", "VH": "EVQLVESGGGLVQPGRSLRLSCAASGFTFDDYAMHWVRQAPGKGLEWVSGISWNSGSIGYADSVKGRFTISRDNAKNSLYLQMNSLRAEDTALYYCAKDIGITTPYWGQGTLVTVSS", "VL": "AIQMTQSPSSLSASVGDRVTITCRASQDIRNDLGWYQQKPGKAPKLLIYSASSLQTGVPSRFSGSGSGTDFTLTISSLHPEDFATYYCLQDYWYTWTFGQGTKVEIKR"}, "B11": {"name": "mAb13458 (antibody, V domains shown)", "VH": "B10 VH", "VL": "B10 VL"}, "B12": {"name": "mAb13459 (antibody, V domains shown)", "VH": "B10 VH", "VL": "B10 VL with W93N, T95V"}, "B13": {"name": "mAb14247 (antibody, V domains shown)", "VH": "QITLKESGPTLVKPTQTLTLTCTFSGFSLSTSAVGVGWIRQPPGKALEWLALIYWDDDKRYSPSLKSRLTITKDTSKNQLVLTMTNVDPVDTATYYCAHHTIQLIFDYWGQGTLVTVSS", "VL": "QSALTQPASVSGSPGQSITISCTATSSDVGNYNYVSWYQQHPGKAPKLMIYEVSNRPSGVSNRFSGSKSGNTASLTISGLQAEDEADYYCSSYTSSSTPLVFGGGTKLTVLG"}, "B14": {"name": "mAb14255 (antibody, V domains shown)", "VH": "QVQLQESGPGLVKPSETLSLTCTVSGGSISGYYWSWIRQPPGKGLDWIGYIYYRGNTNYNPSLKSRVTISVDTSNNQFSLKLSSVTAADTAVYYCARYGEGYGDASGYHFDYWGQGTLVTVSS", "VL": "QSALTQPASVSGSPGQSITISCTGTSSDVGSYNLVSWYQQHPGKAPKLMIYEDSKRPSGVANPFSGSKSGNTASLTISGLQAEDEADYYCSSYAGSSTWVFGGGTKLTVLG"}, "B15": {"name": "mAb14283 (antibody, V domains shown)", "VH": "QVQLQESGPGLVKPSGTLSLTCDVSGGSISSNNWWSWVRQRPGKGLQWIGEIYHNENTNYNPSLKSRVIMSIDKSKNQFSLKLTSVTAADTAVYYCARGDVLDWFDPWGQGTLVTVSS", "VL": "QSALTQPASVSGSPGQSTTISCTGTSSDVGGYNYVSWYQQYPGKAPKLMIYDVTNRPSGVSHRFSGSKSGNTASLTISGLQAEDEADYYCSSYTSSSTVIFGGGTKLTVLG"}, "B16": {"name": "mAb14289 (antibody, V domains shown)", "VH": "QVQLVQSGPEVKKPGASVKVSCKASGYTFTSYAISWVRQAPGQGLEWMGWISAYNGNTNYAQKLQGRVTMTTDTFTSTAYMELRSLRSDDTAVYYCAVPADHITFDYWGQGTLVTVSS", "VL": "EIVLTQSPGTLSLSPGERATLSCRASQSVSSYLAWYQQKPGQAPRLLIHGASSRATGIPDRFSGSGSGTDFTLTISRLEPEDFAVYYCQQYGSSFLTFGGGTKVEIKR"}},
  "key": {"[1]": {"target": "SARS-COV-2 RBD extracellular domain expressed with a C-terminal myc-myc-hexahistidine tag (SARS-COV-2 RBD-mmH) (SARS-CoV-2)", "test": "SPR Biacore, mAb captured on anti-hFc, RBD-mmH analyte, 37 C"}, "[2]": {"target": "SARS-COV-2 RBD extracellular domain expressed with a C-terminal myc-myc-hexahistidine tag (SARS-CoV-2)", "test": "SPR (Biacore), mAb captured by anti-human Fc, RBD-mmH in solution, 25 C"}},
  "note": "Positions count from the first letter of the chain named.",
  "data": [
    {"binder": "B1", "values": [
      {"measurement": "RBD monomer bound at 50 nM (RU)", "setting": "[1]", "value": 221, "unit": "RU"}
    ]},
    {"binder": "B2", "values": [
      {"measurement": "RBD monomer bound at 50 nM (RU)", "setting": "[2]", "value": 215, "unit": "RU"}
    ]},
    {"binder": "B3", "values": [
      {"measurement": "RBD monomer bound at 50 nM (RU)", "setting": "[1]", "value": 345, "unit": "RU"}
    ]},
    {"binder": "B4", "values": [
      {"measurement": "RBD monomer bound at 50 nM (RU)", "setting": "[1]", "value": 154, "unit": "RU"}
    ]},
    {"binder": "B5", "values": [
      {"measurement": "RBD monomer bound at 50 nM (RU)", "setting": "[1]", "value": 216, "unit": "RU"}
    ]},
    {"binder": "B6", "values": [
      {"measurement": "RBD monomer bound at 50 nM (RU)", "setting": "[2]", "value": 127, "unit": "RU"}
    ]},
    {"binder": "B7", "values": [
      {"measurement": "RBD monomer bound at 50 nM (RU)", "setting": "[1]", "value": 186, "unit": "RU"}
    ]},
    {"binder": "B8", "values": [
      {"measurement": "Kd", "setting": "[1]", "value": 0.741, "unit": "nM"},
      {"measurement": "RBD monomer bound at 50 nM (RU)", "setting": "[1]", "value": 220, "unit": "RU"},
      {"measurement": "koff", "setting": "[1]", "value": 0.00144, "unit": "s⁻¹"},
      {"measurement": "kon", "setting": "[1]", "value": "1.95e+06", "unit": "M⁻¹ s⁻¹"},
      {"measurement": "t½", "setting": "[1]", "value": 8, "unit": "min"}
    ]},
    {"binder": "B9", "values": [
      {"measurement": "RBD monomer bound at 50 nM (RU)", "setting": "[2]", "value": 218, "unit": "RU"}
    ]},
    {"binder": "B10", "values": [
      {"measurement": "RBD monomer bound at 50 nM (RU)", "setting": "[1]", "value": 213, "unit": "RU"}
    ]},
    {"binder": "B11", "values": [
      {"measurement": "RBD monomer bound at 50 nM (RU)", "setting": "[2]", "value": 158, "unit": "RU"}
    ]},
    {"binder": "B12", "values": [
      {"measurement": "RBD monomer bound at 50 nM (RU)", "setting": "[2]", "value": 219, "unit": "RU"}
    ]},
    {"binder": "B13", "values": [
      {"measurement": "RBD monomer bound at 50 nM (RU)", "setting": "[2]", "value": 63.3, "unit": "RU"}
    ]},
    {"binder": "B14", "values": [
      {"measurement": "RBD monomer bound at 50 nM (RU)", "setting": "[2]", "value": 180, "unit": "RU"}
    ]},
    {"binder": "B15", "values": [
      {"measurement": "RBD monomer bound at 50 nM (RU)", "setting": "[1]", "value": 217, "unit": "RU"}
    ]},
    {"binder": "B16", "values": [
      {"measurement": "RBD monomer bound at 50 nM (RU)", "setting": "[1]", "value": 186, "unit": "RU"}
    ]}
  ]
}
